Series [1] is described as follows: Evaluated for growth inhibition of AA8 cells under aerobic or hypoxic conditions (air/N2). Particulars: cho-aa8.
Series [2] can be described thus: Evaluated for growth inhibition of UV-4 cells under aerobic conditions. Particulars: uv4.
Series [3] can be described thus: IC50 value determined against UV-4 cells with an 18 hr exposure under either aerobic or hypoxic conditions (Ratio = aerobic IC50 / hypoxic IC50).
Series [4] in a line: Evaluated for growth inhibition of UV-4 cells under aerobic or hypoxic conditions. Conditions: uv4.
The nature of series [5]: Half-life was determined in culture medium at 37 degrees Celsius in alpha MEM.
A short description of series [6]: Ratio = (aerobic IC50 / hypoxic IC50) determined against UV-4 cells with an 18 hr exposure.

In the case of `O=[N+]([O-])c1ccccc1N(CCCl)CCCl`, the IC50 was 1000 nM in series [1] and 520 nM in series [2].

As for `O=[N+]([O-])c1ccc(N(CCCl)CCCl)cc1`, the IC50 in series [3] is 3200 nM; in series [4], 3200 nM; in series [2] it was 22000 nM.

As for `Nc1cccc(N(CCCl)CCCl)c1`, the values for the IC50 in series [4] and in series [2] were 1000 nM and 160 nM, respectively.

For the molecule `CSc1ccc(N(CCCl)CCCl)cc1`, in series [5], the T1/2 was found to be 2.4 h. In series [6], the concentration for half-maximal inhibition (IC50) worked out at 670 nM.

Turning to `Nc1ccccc1N(CCCl)CCCl`, the IC50 in series [1] worked out at 530 nM; in series [2], 480 nM.

With `O=[N+]([O-])c1cccc(N(CCCl)CCCl)c1`, the half-maximal inhibitory concentration (IC50) in series [4] is 1500 nM; in series [2], 13600 nM.

As to `Cl.Nc1cccc(N(CCCl)CCCl)c1`, the T1/2 in series [5] is 1.25 h.

As to `Cl.Nc1ccc(N(CCCl)CCCl)cc1`, in series [5], the T1/2 turned out to be 0.121 h.

As to `COc1cccc(N(CCCl)CCCl)c1`, the T1/2 in series [5] turned out to be 2.9 h. Besides, the IC50 in series [6] is 970 nM.

Molecule `Cc1ccc(N(CCCl)CCCl)cc1` returned a T1/2 in series [5] of 1.08 h. Moreover, in series [6], the half-maximal inhibitory concentration (IC50) turned out to be 790 nM.

In series [5], `COc1ccc(N(CCCl)CCCl)cc1` returned a T1/2 of 0.27 h. Moreover, the IC50 in series [6] came out at 800 nM.

With `O=Nc1ccc(N(CCCl)CCCl)cc1`, the IC50 worked out at 660 nM in series [4] and 80 nM in series [2].

For the molecule `CS(=O)(=O)c1cccc(N(CCCl)CCCl)c1`, the IC50 in series [6] was 980 nM.

On to `CN(C)C(=O)c1cccc(N(CCCl)CCCl)c1`, for which, in series [6], the IC50 was found to be 980 nM.

For `ClCCN(CCCl)c1ccccc1`, in series [3], the IC50 worked out at 1110 nM. In series [5], this molecule registered a T1/2 of 1.3 h.

In the case of `CN(C)C(=O)c1ccc(N(CCCl)CCCl)cc1`, the T1/2 in series [5] worked out at 12.1 h. Also, in series [6], the IC50 came out at 950 nM.

As for `CS(=O)(=O)c1ccc(N(CCCl)CCCl)cc1`, in series [6], the concentration for half-maximal inhibition (IC50) turned out to be 880 nM.

A word on the IC50: it is the concentration that gives 50% inhibition.

For the origin of these results see ChEMBL document CHEMBL1124922 (J Med Chem, 1990).
